Compound potency records, mixed from different reports. Data source: NIAID ChemDB in PubChem.

Common to all: growth or infection tests; agent: Candida albicans; read-out: MIC50

MIC50, MIC90 and the like: level of inhibition, or share of isolates inhibited. Neighbouring rows are from separate reports. Two numbers with a dash give a range or band. Blank or dashed fields: not listed here.

smiles	strain	read by	value
CN(C/C=C/C#CC(C)(C)C)Cc1cccc2ccccc12	CI-2		2 µg/mL
CCC(C)n1ncn(-c2ccc(N3CCN(c4ccc(OC[C@H]5CO[C@](Cn6cncn6)(c6ccc(Cl)cc6Cl)O5)cc4)CC3)cc2)c1=O	9 clinical isolates	broth dilution	0.062 µg/mL
C=C(C)C1CCC(C)CC1O	ATCC 90028	broth dilution	>8000 µg/mL
CC(=O)N/N=C/c1cnc[nH]1	ATCC 18804	broth dilution	>1643 µM
C[C@H](Cc1ccc(O)c(O)c1)[C@@H](C)Cc1ccc(O)c(O)c1	CCC 130-2000	broth dilution	125 µg/mL
C#CCOC(=O)c1ccc(S(N)(=O)=O)cc1			>100 µg/mL
Clc1ccc(COC(Cn2ccnc2)c2ccc(Cl)cc2Cl)cc1	106 isolates		4 µg/mL
Clc1ccc(COC(Cn2ccnc2)c2ccc(Cl)cc2Cl)cc1			6.25 µg/mL
CC12C(=O)c3cccc(O)c3C(=O)C1CC1=C2C(=O)c2c(O)cccc2C1=O			3 µg/mL
C[C@@H](c1nc(-c2ccc(C#N)cc2)cs1)[C@](O)(Cn1cncn1)c1ccc(F)cc1F	4054 strains (fluconazole-susceptible)		0.007 µg/mL
C[C@H]1[C@H](O)[C@@H](C)/C=C/C=C/C=C/C=C/C=C/C=C/C=C/[C@H](O[C@@H]2O[C@H](C)[C@@H](O)[C@H](N)[C@@H]2O)C[C@@H]2O[C@](O)(C[C@@H](O)C[C@@H](O)CC[C@H](O)[C@@H](O)C[C@@H](O)CC(=O)O[C@H]1C)C[C@H](O)[C@H]2C(=O)O		turbidity	<0.2 µg/mL
C[C@@H](c1ncncc1F)[C@](O)(Cn1cncn1)c1ccc(F)cc1F	9 clinical isolates	broth dilution	≤0.031 µg/mL
CC(=O)OC/C=C(\C)CCC=C(C)C	ATCC 90028	broth dilution	4000 µg/mL
O=C(N/N=C\n1ccnc1)c1ccc(Cl)cc1	ATCC 18804	broth dilution	1010 µM
Nc1[nH]c(=O)ncc1F	106 isolates		0.12 µg/mL
C#CCNC(=O)c1ccc(S(N)(=O)=O)cc1			>100 µg/mL
C=C(Cl)CN1C[C@H](OCC23C[C@@H]4[C@H](C)CC[C@H]4C4(C=O)CC2C=C(C(C)C)C34C(=O)O)O[C@H](C)C1	22 isolates		0.03 µg/mL
COc1cc(C=O)cc(OC)c1OC	ATCC 90028	broth dilution	1000 µg/mL
CC(=O)N/N=C(\C)c1ccc(-n2ccnc2)cc1	ATCC 18804	broth dilution	>1030 µM
Oc1cc(Cl)ccc1Oc1ccc(Cl)cc1Cl		broth dilution	32 µg/mL
NS(=O)(=O)c1ccc(C(=O)O)cc1			>100 µg/mL
C[C@H]1[C@H](O)[C@@H](C)/C=C/C=C/C=C/C=C/C=C/C=C/C=C/[C@H](O[C@@H]2O[C@H](C)[C@@H](O)[C@H](N)[C@@H]2O)C[C@@H]2O[C@](O)(C[C@@H](O)C[C@@H](O)CC[C@H](O)[C@@H](O)C[C@@H](O)CC(=O)O[C@H]1C)C[C@H](O)[C@H]2C(=O)O	183 strains		0.125 µg/mL
CC(=O)N/N=C/c1ccc(-n2ccnc2)cc1	ATCC 18804	broth dilution	>1100 µM
CCC(C)CC(C)CCCCCCCCC(=O)N[C@H]1C[C@@H](O)[C@H](NCCN)NC(=O)[C@@H]2[C@@H](O)CCN2C(=O)[C@H]([C@H](O)CCN)NC(=O)[C@H]([C@H](O)[C@@H](O)c2ccc(O)cc2)NC(=O)[C@@H]2C[C@@H](O)CN2C(=O)[C@H]([C@@H](C)O)NC1=O			0.03–0.5 µg/mL
Nc1nc(=O)n([C@H]2CS[C@@H](CO)O2)cc1F	206 isolates		0.25 µg/mL
C[C@H]1[C@H](O)[C@@H](C)/C=C/C=C/C=C/C=C/C=C/C=C/C=C/[C@H](O[C@@H]2O[C@H](C)[C@@H](O)[C@H](N)[C@@H]2O)C[C@@H]2O[C@](O)(C[C@@H](O)C[C@@H](O)CC[C@H](O)[C@@H](O)C[C@@H](O)CC(=O)O[C@H]1C)C[C@H](O)[C@H]2C(=O)O	4054 strains (fluconazole-susceptible)		0.5 µg/mL
C=C(c1ccccc1OCc1cccc(Cl)c1)n1ccnc1	106 isolates		1 µg/mL
OC(Cn1cncn1)(Cn1cncn1)c1ccc(F)cc1F	ATCC 10231		1 µg/mL
O=C(N/N=C\n1ccnc1)c1ccccc1	ATCC 18804	broth dilution	>1167 µM
CC(C)[C@@H]1CC[C@@H](C)C[C@H]1O	ATCC 90028	broth dilution	>8000 µg/mL
NC(=S)N/N=C/c1cnc[nH]1	ATCC 18804	broth dilution	>1480 µM
CCCCCOc1ccc(-c2ccc(-c3ccc(C(=O)N[C@H]4C[C@@H](O)[C@@H](O)NC(=O)[C@@H]5[C@@H](O)[C@@H](C)CN5C(=O)[C@H]([C@H](C)O)NC(=O)[C@H]([C@H](O)[C@@H](O)c5ccc(O)cc5)NC(=O)[C@@H]5C[C@@H](O)CN5C(=O)[C@H]([C@H](C)O)NC4=O)cc3)cc2)cc1			0.015 µg/mL
O=C(N/N=C\n1ccnc1)c1ccc([N+](=O)[O-])cc1	ATCC 18804	broth dilution	>964.4 µM
COC(=O)/C=C1/NN=C(c2ccccn2)N(c2ccccn2)C1=O	Clinical isolates (2 strains)	agar diffusion	256 µg/mL

The last 4 rows once more:

NC(=S)N/N=C/c1cnc[nH]1 ; strain: ATCC 18804 ; read by: broth dilution ; value: >1480 µM
CCCCCOc1ccc(-c2ccc(-c3ccc(C(=O)N[C@H]4C[C@@H](O)[C@@H](O)NC(=O)[C@@H]5[C@@H](O)[C@@H](C)CN5C(=O)[C@H]([C@H](C)O)NC(=O)[C@H]([C@H](O)[C@@H](O)c5ccc(O)cc5)NC(=O)[C@@H]5C[C@@H](O)CN5C(=O)[C@H]([C@H](C)O)NC4=O)cc3)cc2)cc1 ; value: 0.015 µg/mL
O=C(N/N=C\n1ccnc1)c1ccc([N+](=O)[O-])cc1 ; strain: ATCC 18804 ; read by: broth dilution ; value: >964.4 µM
COC(=O)/C=C1/NN=C(c2ccccn2)N(c2ccccn2)C1=O ; strain: Clinical isolates (2 strains) ; read by: agar diffusion ; value: 256 µg/mL